PubChem BioAssay AID504761 – Drosophila RNAi Screening Center, 2011
The deposit covers about 22,000 reagents; below is a random part of those that have a named target and a result. In the full data, 116 (0.52%) were called active. 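Calls depend on retest data that are not deposited; infection was ranked per plate without normalising between plates; the unit of the infection score is not given.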 Raw values are not corrected between plates. Unmarked entries are inactive. A plus sign joins genes that one reagent is predicted to hit. No sequences are given here. Not given: the amount of reagent, the time to read-out.

Aim: 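Fly genes whose silencing reduces dengue virus type 2 infection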 (primary screen)
Cells: D.Mel-2 cells from Drosophila
Reagents: long dsRNA against Drosophila genes
Treatment: infection with dengue virus type 2; dose and infection time not stated
Measurement: 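Per well on two replicate plates, imaging gave the percent of cells positive for viral envelope protein, ranked by infection, and a nuclear count of cells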
Reading the numbers: infection score: higher = more virus-infected cells; cell count: higher = more cells in the well
Hit rule: 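Very low infection ranking in both replicate wells (chance probability at most 0.065), then a retest showing infection dropped 1.5-fold or more at p below 0.05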
Meaning of the calls: active = confirmed: knock-down lowers infection; inactive = not picked or not confirmed

no.	Target gene	DRSC id	infection score, replicate 1	infection score, replicate 2	cell count, replicate 1	cell count, replicate 2
1	CG15711	DRSC06582	30.3	5.97	6381	6010
2	Spn43Aa (Serpin 43Aa)	DRSC06117	28.8	34.2	6462	6301
3	CR42545 (pseudo)	DRSC03709	3.67	6.99	871	1059
4	CG2157	DRSC19836	1.14	2.87	6409	6645
5	ste24a (prenyl protease type I)	DRSC07314	12.2	18.8	4826	2625
6	ste24a (prenyl protease type I)	DRSC26491	1.92	1.17	6473	5959
7	SREBP (Sterol regulatory element binding protein)	DRSC11182	0.2	0.42	505	473
8	Or67d (Odorant receptor 67d)	DRSC10158	2.2	6.73	5507	6270
9	Rrp4	DRSC04434	19.4	6.84	5921	6013
10	Rrp4	DRSC29543	12.3	16.1	4384	5231
11	alpha-Est2 (alpha-Esterase-2)	DRSC12614	3.21	3.36	6270	6691
12	GstS1 (Glutathione S transferase S1)	DRSC07436	6.77	2.92	6843	6840
13	klar (klarsicht)	DRSC08718	9.57	8.99	6538	6827
14	klar (klarsicht)	DRSC22393	1.13	0.98	6015	6707
15	Ppm1	DRSC08260	3.14	0.72	6176	5858
16	Ppm1	DRSC27792	5.08	3.26	6931	6879
17	dpr14 (defective proboscis extension response 14)	DRSC17767	9.06	9.9	6526	6715
18	dpr14 (defective proboscis extension response 14)	DRSC26488	5.92	3.85	5574	6022
19	CG14370	DRSC14832	3.9	3.35	5839	5764

Quoted from the listing, 5 entries:
no.	Target gene	DRSC id	infection score, replicate 1	infection score, replicate 2	cell count, replicate 1	cell count, replicate 2
4	CG2157	DRSC19836	1.14	2.87	6409	6645
5	ste24a (prenyl protease type I)	DRSC07314	12.2	18.8	4826	2625
6	ste24a (prenyl protease type I)	DRSC26491	1.92	1.17	6473	5959
7	SREBP (Sterol regulatory element binding protein)	DRSC11182	0.2	0.42	505	473
8	Or67d (Odorant receptor 67d)	DRSC10158	2.2	6.73	5507	6270

The listing continues:
no.	Target gene	DRSC id	infection score, replicate 1	infection score, replicate 2	cell count, replicate 1	cell count, replicate 2
20	Surf1 (Surfeit 1)	DRSC11295	3.82	2.71	6232	5858
21	Surf1 (Surfeit 1)	DRSC11394	11.8	6.6	6265	6511
22	CG31870	DRSC21681	2.07	2.43	5790	6427
23	CG31870	DRSC27838	13.8	35.9	3238	5910
24	CG18787 + CG18789	DRSC24994	9.07	17.7	3427	6101
25	E23 (Early gene at 23)	DRSC00593	1.82	4.13	6479	6149
26	E23 (Early gene at 23)	DRSC25491	2.1	1.54	6859	6612
27	Had1 (beta Hydroxy acid dehydrogenase 1)	DRSC20216	6.37	4.74	6275	6417
28	Fur2 (Furin 2)	DRSC19817	6.81	9.4	6730	6407
29	scpr-A + scpr-C	DRSC15737	1.8	2.85	6629	6492
30	Ythdf (YTH N6-methyladenosine RNA binding protein)	DRSC16036	0.74	7.99	6041	6093
31	Ythdf (YTH N6-methyladenosine RNA binding protein)	DRSC16037	0.84	2.07	6275	5905
32	CG15186	DRSC12566	5.27	6.85	6795	6204
33	CG15186	DRSC26271	8.72	8.74	6446	6281
34	gprs	DRSC06761	9.85	20.6	3075	7094
35	CG6733	DRSC16103	3.39	1.77	6611	7000
36	TwdlC (TweedleC)	DRSC14749	0.99	2.85	6293	6431
37	TwdlC (TweedleC)	DRSC25255	8.98	9.01	7186	6716
38	CG8679	DRSC03109	2.82	0.88	886	799
39	asun (asunder)	DRSC16733	4.84	4.35	6635	6370
